Measured values as given in publication PMC10109501, “Cryo-EM structures and binding of mouse and human ACE2 to SARS-CoV-2 variants of concern indicate that mutations enabling immune escape could expand host range” (2023).

Biological target: mouse ACE2-Fc (residues 19-615, mouse IgG2a Fc fusion) (mouse) (UniProt Q8R0I0)
Assay: BLI

Q: Omicron Spike proteins was tested. Which fold stronger affinity compared to Beta did it give?
A: 14 fold and 20 fold

“And” between values parts separate entries of the source, which are not always exact repeats. Equal values may be shown once.
